Anti-infective test results gathered from many reports (values: NIAID ChemDB through PubChem).

All rows: tests in culture; species: HIV-2

ECn: concentration that inhibits the pathogen or its effect by n%.

SMILES | strain | method | cells | endpoint | value
N#Cc1ccc(CN2CCC(N=C3C=C(Cc4cccc5ccccc45)NS(=O)(=O)N3)CC2)cc1 | ROD | MTT | MT-4 | EC50 | >100 µM
Cc1cc(Br)cc(C)c1Oc1ncc(NC(=O)C(F)(F)F)c(Nc2ccc(C#N)cc2)n1 | ROD | MTT | MT-4 | EC50 | 36.04 µM
Fc1cc2nc3n(c2cc1F)C(c1c(Cl)cccc1Cl)SC3 | ROD | cytopathic effect / MTT | MT-4 | EC50 | >17.6 µM
COC(=O)N[C@H](C(=O)N[C@@H](Cc1ccccc1)[C@@H](O)CN(Cc1ccc(-c2ccccn2)cc1)NC(=O)[C@@H](NC(=O)OC)C(C)(C)C)C(C)(C)C | ROD | - | MT-2 | EC50 | 0.027 µM
CS(=O)(=O)c1ccc(CN2CCC(N=C3C=C(Cc4cccc5ccccc45)NS(=O)(=O)N3)CC2)cc1 | ROD | MTT | MT-4 | EC50 | >232 µM
CCc1nc2sccn2c1C(=O)c1ccco1 | 194 | RT activity | PBMC | EC50 | >100 µM
Cc1cc(C=O)cc(C)c1Oc1ncc([N+](=O)[O-])c(Nc2ccc(C#N)cc2)n1 | ROD | MTT | MT-4 | EC50 | >37.18 µM
O=S1(=O)N=C(Nc2ccc(Br)cc2)C=C(Cc2ccccc2)N1 | ROD | MTT | MT-4 | EC50 | >163 µM
Cc1cn([C@H]2C=C[C@@H](CO)O2)c(=O)[nH]c1=O | ROD | syncytia | CEM + CEM TK- | EC50 | 33 µM
COC(=O)[C@H](C)NP(=O)(OC[C@@H]1CC[C@H](n2cnc3c(N)ncnc32)O1)Oc1ccccc1 | ROD | - | MOLT-4/C8 + MOLT-4 | EC50 | 0.05 µM
c1ccc2c(c1)sc1nccn12 | - | cytopathic effect / XTT | CEM + CEM-SS | EC50 | >69 µM
CCc1nc2ccccn2c1C(=O)c1ccco1 | ROD | RT activity | PBMC | EC50 | >100 µM
CS(=O)(=O)c1ccc(CN2CCC(N=C3C=C(Cc4ccc(Cl)cc4Cl)NS(=O)(=O)N3)CC2)cc1 | ROD | MTT | MT-4 | EC50 | >224 µM
COc1cccc2c1OP(=O)(OC[C@H]1O[C@@H](n3cc(C)c(=O)[nH]c3=O)C[C@@H]1N=[N+]=[N-])OC2 | - | - | CEM + CEM/O | EC50 | 0.009 µM
Cc1cccc2c1nc1n2C(c2c(F)cccc2F)SC1 | ROD | cytopathic effect / MTT | MT-4 | EC50 | >49.6 µM
C1CNCCNCCCN(CCCN2CCCNCCNCCCNCC2)CCNC1 | ROD | antigen | CEM | EC90 | 1.49 µM
Fc1cccc(Cl)c1C1SCc2nc3ccc(C(F)(F)F)cc3n21 | ROD | cytopathic effect / MTT | MT-4 | EC50 | >15 µM
Cc1cc(Br)cc(C)c1Oc1ncc([N+](=O)[O-])c(Nc2ccc(C#N)cc2)n1 | ROD | MTT | MT-4 | EC50 | ≥202 µM
O=S1(=O)NC(Cc2ccc3ccccc3c2)=CC(=NCc2ccccc2)N1 | ROD | MTT | MT-4 | EC50 | >161 µM
COC(=O)[C@H](C)NP(=O)(OC[C@@H]1C=C[C@H](n2cc(C)c(=O)[nH]c2=O)O1)Oc1ccccc1 | ROD | syncytia | CEM + CEM TK- | EC50 | 0.08 µM
CC(=O)Nc1cnc(Oc2c(C)cc(C#N)cc2C)nc1Nc1ccc(C#N)cc1 | ROD | MTT | MT-4 | EC50 | >30.11 µM
Cc1cccc(C)c1OCC(=O)N[C@@H](Cc1ccccc1)[C@@H](O)C[C@H](Cc1ccccc1)NC(=O)[C@H](C(C)C)N1CCCNC1=O | ROD | MTT | MT-2 | EC50 | 0.018 µM
CC(C)CN(C[C@@H](O)[C@H](Cc1ccc(F)cc1)NC(=O)O[C@H]1CCO[C@H]2OCC[C@H]21)S(=O)(=O)c1ccc2nc(NC(C)C)sc2c1 | ROD | MTT | MT-2 | EC50 | 0.0026 µM
Cc1cn([C@H]2C[C@@H]3[C@@H](COCN3O)O2)c(=O)[nH]c1=O | ROD | trypan blue | MT-4 | EC50 | 4.3 µg/mL
CC(C)[C@H](NC(=O)c1ccc2ccccc2n1)C(=O)N[C@@H](Cc1ccccc1)[C@H](O)CN1CC[C@@H](OCc2ccncc2)C[C@H]1C(=O)NC(C)(C)C | ROD | p24 | CEMx174 + CEM | EC50 | 0.004 µM
Cc1cc(NCc2cccc3ccccc23)c(C(=O)C(Cl)Cl)c(=O)o1 | ROD | MTT | CEM | EC50 | >2 µM
CCN(C)C1=NS(=O)(=O)NC(Cc2ccc3ccccc3c2)=C1 | ROD | MTT | MT-4 | EC50 | >195 µM
CC[C@H](C)[C@H](NC(=O)c1ccccc1SSc1ccccc1C(=O)N[C@H](C(=O)O)[C@@H](C)CC)C(=O)O | - | p24 / RT activity | CEM | EC50 | 6.4 µM
COC(=O)CC(OP(=O)(OC[C@@H]1C=C[C@H](n2cc(C)c(=O)[nH]c2=O)O1)OC(CC(=O)OC)c1ccccc1)c1ccccc1 | ROD | cytopathic effect / syncytia | CEM + CEM TK- | EC50 | >10 µM
Cc1cc(N[C@@H](C)c2cccc3ccccc23)cc(=O)o1 | ROD | MTT | CEM | EC50 | >10 µM
COc1ccc(NC2=NS(=O)(=O)NC(Cc3ccccc3)=C2)cc1 | ROD | MTT | MT-4 | EC50 | >318 µM
Cc1cn([C@H]2C[C@H](N(C)O)[C@@H](CO)O2)c(=O)[nH]c1=O | ROD | trypan blue | MT-4 | EC50 | 0.8 µg/mL
CC(=O)Oc1ccc(COP(=O)(OCc2ccc(OC(C)=O)cc2)OC[C@@H]2C=C[C@H](n3cc(C)c(=O)[nH]c3=O)O2)cc1 | ROD | cytopathic effect / syncytia | CEM + CEM/O | EC50 | 0.33 µM
Cc1cn([C@H]2C[C@H](F)[C@@H](CO)O2)c(=O)[nH]c1=O | 2298 | ELISA | PBMC | EC50 | 0.006 µM
O=S1(=O)N=C(Nc2ccc(F)c(F)c2F)C=C(Cc2ccccc2)N1 | ROD | MTT | MT-4 | EC50 | >198 µM
Nc1nc(Nc2cccc3ccccc23)c2ncn(CCOCP(=O)(O)O)c2n1 | ROD | cytopathic effect / MTT | CEM | EC50 | 80 µg/mL
COc1ccccc1NC1=NS(=O)(=O)NC(Cc2cccc3ccccc23)=C1 | ROD | MTT | MT-4 | EC50 | >161 µM
Cc1cn([C@H]2C[C@H](N=[N+]=[N-])[C@@H](CO)O2)c(=O)[nH]c1=O | - | cytopathic effect / XTT | CEM + CEM-SS | EC50 | 0.005 µM
Cc1cn([C@H]2C[C@H](N=[N+]=[N-])[C@@H](COP3(=O)OCc4cc([N+](=O)[O-])ccc4O3)O2)c(=O)[nH]c1=O | - | - | CEM + CEM TK- | EC50 | >100 µM
CCOC(=O)CC1OP(=O)(OC[C@@H]2C=C[C@H](n3cc(C)c(=O)[nH]c3=O)O2)Oc2ccccc21 | ROD | cytopathic effect / syncytia | CEM + CEM TK- | EC50 | 25 µM
C[C@H](C[n+]1c[nH]c2c(N(C)C)nc(N)nc21)OCP(=O)(O)O | ROD | cytopathic effect / MTT | CEM | EC50 | 9 ± 1.4 µg/mL
COc1ccc(S(=O)(=O)N(CC(C)C)C[C@@H](O)[C@H](Cc2cc(F)cc(F)c2)NC(=O)O[C@H]2CO[C@H]3OCC[C@H]32)cc1 | ROD | MTT | MT-2 | EC50 | 0.0002 µM
Cc1ccnc2c1NC(=O)c1cccnc1N2C1CC1 | - | cytopathic effect / XTT | CEM + CEM-SS | EC50 | >38 µM
CN(C)CCNc1ncnc2c1ncn2CCOCP(=O)(O)O | ROD | cytopathic effect / MTT | CEM | EC50 | 75 µg/mL
Fc1cc2nc3n(c2cc1F)C(c1c(F)cccc1F)SC3 | ROD | cytopathic effect / MTT | MT-4 | EC50 | >37.3 µM
Cc1cn([C@H]2C=C[C@@H](COP(=O)(O[C@H](C)c3ccccc3)O[C@H](C)c3ccccc3)O2)c(=O)[nH]c1=O | ROD | cytopathic effect / syncytia | CEM + CEM TK- | EC50 | >250 µM
CCCCNc1nc(N)nc2c1ncn2CCOCP(=O)(O)O | ROD | cytopathic effect / MTT | MT-4 | EC50 | 2.3 µg/mL
Cc1cc(C)c(Oc2ncc([N+](=O)[O-])c(Nc3ccc(C#N)cc3)n2)c(C)c1 | ROD | MTT | MT-4 | EC50 | ≥252 µM
O=S1(=O)NC(Cc2ccc(Cl)cc2Cl)=CC(=NC2CCN(Cc3ccc(Br)cc3)CC2)N1 | ROD | MTT | MT-4 | EC50 | >97.9 µM
C[C@H](C[n+]1c[nH]c2c(Nc3ccoc3)nc(N)nc21)OCP(=O)(O)O | ROD | cytopathic effect / MTT | CEM | EC50 | 6 ± 5.7 µg/mL
Cc1cc(S(=O)(=O)CCc2cccc3ccccc23)cc(=O)o1 | ROD | MTT | CEM | EC50 | >2 µM
O=S1(=O)N=C(Nc2ccc(F)cc2)C=C(Cc2ccccc2)N1 | ROD | MTT | MT-4 | EC50 | >255 µM
N#Cc1ccc(Nc2nc(Oc3c(Cl)cccc3Cl)ncc2[N+](=O)[O-])cc1 | ROD | MTT | MT-4 | EC50 | >207 µM
CCc1nc2ccccn2c1C(=O)c1cccs1 | 194 | RT activity | PBMC | EC50 | >100 µM
Cc1cc(C)c(CN2CCC(N=C3C=C(Cc4cccc5ccccc45)NS(=O)(=O)N3)CC2)c(C)c1 | ROD | MTT | MT-4 | EC50 | >70.22 µM
N#Cc1ccc(Nc2nc(Oc3c(Cl)cccc3Cl)ncc2NC(=O)C(F)(F)F)cc1 | ROD | MTT | MT-4 | EC50 | >190 µM
CC(C)CN(C[C@@H](O)[C@H](Cc1ccccc1)NC(=O)O[C@H]1CCOC1)S(=O)(=O)c1ccc(N)cc1 | ROD | MTT | MT-2 | EC50 | 0.47 µM
Cc1ccc2c(c1)COP(=O)(OC[C@H]1O[C@@H](n3cc(C)c(=O)[nH]c3=O)C[C@@H]1N=[N+]=[N-])O2 | - | - | CEM + CEM TK- | EC50 | 21 µM
C1CNCCNCCCN[C@H]([C@@H]2CNCCCNCCNCCCN2)CNC1 | EHO | cytopathic effect / MTT | MT-4 | EC50 | 0.29 µM
COC(=O)[C@H](C)NP(=O)(OC[C@@H]1C=C[C@H](n2cnc3c(N)ncnc32)O1)Oc1ccccc1 | ROD | - | C8166 | EC50 | 0.065 µM

Again, the opening 7 rows:

SMILES | strain | method | cells | endpoint | value
N#Cc1ccc(CN2CCC(N=C3C=C(Cc4cccc5ccccc45)NS(=O)(=O)N3)CC2)cc1 | ROD | MTT | MT-4 | EC50 | >100 µM
Cc1cc(Br)cc(C)c1Oc1ncc(NC(=O)C(F)(F)F)c(Nc2ccc(C#N)cc2)n1 | ROD | MTT | MT-4 | EC50 | 36.04 µM
Fc1cc2nc3n(c2cc1F)C(c1c(Cl)cccc1Cl)SC3 | ROD | cytopathic effect / MTT | MT-4 | EC50 | >17.6 µM
COC(=O)N[C@H](C(=O)N[C@@H](Cc1ccccc1)[C@@H](O)CN(Cc1ccc(-c2ccccn2)cc1)NC(=O)[C@@H](NC(=O)OC)C(C)(C)C)C(C)(C)C | ROD | - | MT-2 | EC50 | 0.027 µM
CS(=O)(=O)c1ccc(CN2CCC(N=C3C=C(Cc4cccc5ccccc45)NS(=O)(=O)N3)CC2)cc1 | ROD | MTT | MT-4 | EC50 | >232 µM
CCc1nc2sccn2c1C(=O)c1ccco1 | 194 | RT activity | PBMC | EC50 | >100 µM
Cc1cc(C=O)cc(C)c1Oc1ncc([N+](=O)[O-])c(Nc2ccc(C#N)cc2)n1 | ROD | MTT | MT-4 | EC50 | >37.18 µM

An empty or dashed field is not shown. Conditions beyond the fields shown may differ between rows.